Measurements taken from article PMC12255788, “Intracellular pathogen effector reprograms host gene expression by inhibiting mRNA decay” (Nature Communications, 2025).
Changes are numbered by the printed parent chain. Numbers in names are those of the source.

B1: His6-tagged PieF^K124A (natural protein)
chain: MKRLIICNGNKLTVCTQAISSGGIVEKYTPIFSLTKESDNELTLELSGVARGYYIIPSELTSSQARAAHLITLLTRAEESQTTDMHKILNSFVSGKITSGSMFNFENDGSFKREPEEAYNLINAI
B2: His6-tagged PieF 2M (natural protein)
chain: B1 chain with E117R, L121E, A124K
B3: His6-tagged PieF^K124R (natural protein)
chain: B1 chain with A124R

Target: His6-SUMO-NOT7 (human, UniProt Q9UIV1 1-285)
Assay: ITC

Binder	fold weaker binding than wild-type PieF [fold]	fold decreased affinity against wild-type PieF [fold]
B1	~23	
B2	~18	
B3		~4
